Measured values from several laboratories, pooled; numbers as filed in NIAID ChemDB.

Shared fields: enzyme or target tests; agent: Herpes simplex virus 2; target: Thymidine kinase; endpoint: IC50

Conditions beyond the fields shown may differ between rows.

compound,strain or isolate,value
C=Cc1cn([C@@H]2O[C@H](CO)[C@@H](O)[C@@H]2F)c(=O)nc1N,G,>200 µM
CCc1cn([C@H]2C[C@H](O)[C@@H](CNC(=O)C(C)Oc3ccccc3)O2)c(=O)[nH]c1=O,,0.07 µM
CC(=O)NC[C@H]1O[C@@H](n2cc(I)c(=O)[nH]c2=O)C[C@@H]1O,,78 µM
CCc1cn([C@H]2C[C@H](O)[C@@H](COS(=O)(=O)c3ccc(C)cc3)O2)c(=O)[nH]c1=O,,4.1 µM
Nc1nc(=O)n([C@@H]2O[C@H](CO)[C@@H](O)[C@@H]2F)cc1/C=C/Br,G,>200 µM
CCc1cn([C@H]2C[C@H](O)[C@@H](COS(C)(=O)=O)O2)c(=O)[nH]c1=O,,4.8 µM
O=c1[nH]c(=O)n([C@@H]2O[C@H](CO)[C@@H](O)[C@@H]2F)cc1/C=C/Br,G,>200 µM
CC(=O)NC[C@H]1O[C@@H](n2cc(C)c(=O)[nH]c2=O)C[C@@H]1O,,~200 µM
O=c1[nH]c(=O)n([C@@H]2C[C@@H](O)[C@H](CO)O2)cc1C(F)(F)F,,14.5 µM
COc1ccc(S(=O)(=O)NC[C@H]2O[C@@H](n3cc(C)c(=O)[nH]c3=O)C[C@@H]2O)cc1,,116 µM
CCc1cn([C@H]2C[C@H](O)[C@@H](CNC(=O)Cc3ccccc3)O2)c(=O)[nH]c1=O,,0.3 µM
CS(=O)(=O)NC[C@H]1O[C@@H](n2cc(I)c(=O)[nH]c2=O)C[C@@H]1O,,35 µM
Nc1nc(=O)n([C@@H]2O[C@H](CO)[C@@H](O)[C@@H]2F)cc1/C=C/C(=O)O,G,>200 µM
C#C[C@H]1O[C@@H](n2cc(C)c(=O)[nH]c2=O)C[C@@H]1O,333,46 µM
CCc1cn([C@H]2C[C@H](O)[C@@H](CNC(=O)CCc3ccccc3)O2)c(=O)[nH]c1=O,,0.8 µM
Cc1cn([C@H]2C[C@H](O)[C@@H](CNS(=O)(=O)c3ccc(NS(=O)(=O)O)cc3)O2)c(=O)[nH]c1=O,,>200 µM

2 of the rows above, restated:

compound	strain or isolate	value
CCc1cn([C@H]2C[C@H](O)[C@@H](CNC(=O)CCc3ccccc3)O2)c(=O)[nH]c1=O		0.8 µM
Nc1nc(=O)n([C@@H]2O[C@H](CO)[C@@H](O)[C@@H]2F)cc1/C=C/C(=O)O	G	>200 µM

ICn is the concentration giving n% inhibition. An empty or dashed field is not shown.